Source: US6699989B1, “Antiviral and antimicrobial guanidine or biguanidine derivatives” (priority 2000, dated 2004)

Key:
[1] = tested on: HIV-1; test: PBMC assay, virus production by reverse transcriptase activity; format: cell-based; settings: ROJO in PBMC, TC50/IC50
Excerpt: Method 2: PBMC Assay Method (Peripheral Blood Mononuclear cell)—Description
This assay addresses the issue of providing a rationale for further evaluation of the compound by providing evidence of in vitro anti-HIV activity against a low passage clinical strain of HIV-1. These fresh human peripheral blood mononuclear cell assays use fresh human cells obtained from the American Red Cross from uninfected, normal human donors. Mononuclear cells from these blood samples are isolated by centrifugation and infected with low passage clinical strains of HIV-1 which have been obtained by culture of blood cells from HIV-infected patients with uninfected PBMCs. Since the PBMCs are not killed by HIV infection, endpoint quantification is performed by measurement of virus production in each well by reverse transcriptase assay or p24 ELISA. These assays provide evidence that the test compounds will have efficacy against viruses, which will likely be encountered in patients without genetic changes, introduced by passage in cell culture.
Thus, PBMCs assay measures the amount of virus released from the infected cells into the tissue culture supernatant. The activity of the test compound is measured by its ability to reduce the level of virus production relative to the virus controls (cells+virus with no added compound). In PBMC culture we use reverse transcriptase activity in the supernatant to quantify the amount of virus production from the infected cells. Endpoint quantification is performed at 6 days post-infection.
Fresh human peripheral blood lymphocytes (PBL) are isolated from voluntary Red Cross donors, seronegative for HIV and HBV. […]
In the standard PBL assay (MOI: 0.2), the assay was ended on day 7 following collection of cell free supernatant samples for reverse transcriptase activity assay. In the low MOI PBL assay (MOI: 0.02), supernatant samples were collected on day 6, day 11, and day 14 post-infection and analyzed for RT activity.

[2] = tested on: HIV-1; settings: for ANTIVIRAL INDEX (AI) 25% / ANTIVIRAL INDEX (AI) 50% / ANTIVIRAL INDEX (AI) 95% / SI: CEM-SS, HIV1 RF; for SI: XTT assay

| Compound | TI [1] | therapeutic index ([2]; CEM-SS cells, TC50/IC50) | ANTIVIRAL INDEX (AI) 25% [2] | ANTIVIRAL INDEX (AI) 50% [2] | ANTIVIRAL INDEX (AI) 95% [2] | SI [2] | TI ([1]; listed as BVS 10A) |
| --- | --- | --- | --- | --- | --- | --- | --- |
| Cc1cn([C@H]2C[C@H](N=[N+]=[N-])[C@@H](CO)O2)c(=O)[nH]c1=O [AZT, reference compound] | TI = >40.0 |  |  |  |  |  |  |
| N=C(NCCCCCCNC(=N)NC(=N)N1CCN(c2cc3c(cc2F)c(=O)c(C(=O)O)cn3C2CC2)CC1)NC(=N)N1CCN(c2cc3c(cc2F)c(=O)c(C(=O)O)cn3C2CC2)CC1 [BVS-10A] | approximately 50 | > 10 | >8.33 | >6.01 | >3.34 | SI: >6.01 | TI = >39.4 |
| Nc1ccn([C@H]2CC[C@@H](CO)O2)c(=O)n1 [DDC, di-deoxycytosine, reference compound] |  |  | >754.29 | >485.51 | >4.73 | SI: >485.51 |  |
